Pooled drug test results. Numbers come from NIAID ChemDB, via PubChem.

All rows: tests in culture; organism: HIV-1; endpoint: EC50

ECn is the concentration giving n% inhibition of infection, replication or growth. Conditions beyond the fields shown may differ between rows. Two numbers with a dash give a range or band. Blank or dashed fields: not listed here.

structure	mutations	method	strain	conditions	cell line	result
C[C@H](Cn1cnc2c(N)nc(N)nc21)OCP(=O)(O)O	-	p24 / syncytia	IIIB	-	PBL	0.15 µM
CC(C)[C@H](NC(=O)c1ccc2ccccc2n1)C(=O)N[C@@H](Cc1ccccc1)[C@H](O)CN1CC[C@@H](OCc2ccncc2)C[C@H]1C(=O)NC(C)(C)C	-	p24 / ELISA / antigen	Wg3522	-	PBMC	0.015 µM
Cc1cc(Cl)cc(S(=O)(=O)c2cccc(N)c2C#N)c1	RT-K103N P225H	β-galactosidase	-	-	HeLa + HELA CD4+	19 µM
CCCCCCNC(=O)OCCCCCCNC(=O)OC1CCN(C(=O)Oc2ccc(Oc3ccccc3)cc2)CC1	-	cytopathic effect / syncytia / microscopy	IIIB	-	C8166	1.51 µM
O=c1[nH]cnc2c1ncn2[C@H]1CC[C@@H](CO)O1	RT-A98G K103R	-	BCF11	-	PBMC	0.45 µM
O=c1[nH]cnc2c1ncn2[C@H]1CC[C@@H](CO)O1	RT-F77L F116Y Q151M	cytopathic effect	FO-08.96 (HXB2 RT F77L F116Y Q151M)	-	MT-4	304 µM
Cc1cn([C@H]2C[C@H](N=[N+]=[N-])[C@@H](CO)O2)c(=O)[nH]c1=O	RT-L74V	cytopathic effect / XTT	NL4-3	-	CEM + CEM-SS	0.005 µM
Cc1ncn(-c2ncc(F)c3c(C(=O)C(=O)N4CCC(C(c5ccccc5)c5nccn5C)CC4)c[nH]c23)n1	-	luciferase / reporter gene / single cycle	LAI	-	MT-2	<0.5 µM
Cc1ccc(-c2ccc3c(c2)C=C(C(=O)Nc2ccc(C[N+](C)(C)C4CCOCC4)cc2)CCC3)cc1	-	antigen	SF162 R5	-	PBMC	>1 µg/mL
COc1cc(OC)c2c(O)c3c(=O)cc(C)oc3cc2c1	-	XTT / absorbance	SF162	-	TZM-bl	>50 µM
COC(=O)c1cc2c(c(OC)c1-c1ccc(N(C)C)cc1)OCO2	K103N + Y181C	antigen	A17	-	C8166	78.2 µM
C=CCN1C(=S)S/C(=C\c2ccc(-c3ccccc3)o2)C1O	-	PCR	YU2	-	HEK 293	0.5–1 µM
Cc1ccc(C)c2c1[nH]c1cc(Cl)ccc12	-	luminescence	NL4-3	-	TZM-bl	3.5 µM
NC(=O)c1cc2c(-c3ccc(Oc4ccccc4)cc3)cncc2s1	-	p24 / ELISA	-	-	U1	0.077 µM
Cc1cc(O)cc(S(=O)(=O)c2cccc(N)c2C#N)c1	RT-Y188C	β-galactosidase	-	-	HeLa + HELA CD4+	0.4 µM
Cc1ccc(C)c2c1[nH]c1c(Cl)cccc12	-	luminescence	BaL	-	TZM-bl	30.6 µM
Cc1ccnc2c1NC(=O)c1cccnc1N2C1CC1	RT-K103N	cytopathic effect	IIIB	-	CEM	1.5 µg/mL
CNc1ccc(Cl)cc1S(=O)(=O)c1ccccc1[N+](=O)[O-]	-	XTT	SK1	-	CEM + CEM-SS	0.4 µM
Cc1cn([C@H]2C[C@H](N=[N+]=[N-])[C@@H](CO)O2)c(=O)[nH]c1=O	-	p24 / RT activity	NL4-3	-	PBMC	0.00504 µM
CCCc1cc(=O)oc2c3c(c4c(c12)OC(C)(C)C=C4)O[C@@H](C)[C@H](C)[C@@H]3O	-	RT activity	TEKI(SI)	-	PBMC	0.2 µM
Cc1cn([C@H]2C[C@H](N=[N+]=[N-])[C@@H](CO)O2)c(=O)[nH]c1=O	-	PCR	-	-	Jurkat cells	3.4 µM
CC(C)(C)NC(=O)[C@@H]1C[C@@H]2CCCC[C@@H]2CN1C[C@@H](O)[C@H](Cc1ccccc1)NC(=O)[C@H](CC(N)=O)NC(=O)c1ccc2ccccc2n1	PR-L10V K20C M36I L63T I64V A71V	-	BCF02	-	PBMC	0.0132 µM
CC(=O)N1CCN(c2cncc3sc(C(N)=O)c(N)c23)CC1	-	p24 / ELISA	-	-	U1	0.219 µM
O=c1[nH]n(-c2nc3ccccc3c(=O)n2-c2ccc([N+](=O)[O-])cc2)c(=O)c2ccccc12	-	visual reading	IIIB	-	MT-4	66.47 µM
CC(C)Nc1cccnc1N1CCN(C(=O)c2cc3cc(NS(C)(=O)=O)ccc3[nH]2)CC1	RT-F77L F116Y Q151M	cytopathic effect	FO-08.96 (HXB2 RT F77L F116Y Q151M)	-	MT-4	0.06 µM
Cc1cc([N+](=O)[O-])c(C)c2c1[nH]c1cc(Cl)ccc12	-	luminescence	BaL	-	TZM-bl	5.3 µM
Cc1ccnc2c1NC(=O)c1cccnc1N2C1CC1	RT-A62V V75I F77L Q151M	β-galactosidase	NRTI resistant (RT A62V V75I F77L Q151M) MDR151	-	MAGI	0.16 µM
CCCc1cc(=O)oc2c3c(c4c(c12)OC(C)(C)C=C4)O[C@H](C)[C@@H](C)[C@@H]3O	-	XTT	IIIB	-	CEM + CEM-SS	0.08 µM
Cc1cn([C@H]2C[C@H](N=[N+]=[N-])[C@@H](CO)O2)c(=O)[nH]c1=O	-	visual reading	IIIB	-	MT-4	0.0012 µM
CC[C@H]1C(=O)Nc2ccc(F)cc2N1C(=O)OC(C)C	RT-L100V K103R/K Y188H	cytopathic effect	B-1 (RT L100V K103R/K Y188H)	-	CEM	0.0082 µg/mL
O=C(Nc1nc2c(Cl)cccc2s1)c1ccc([N+](=O)[O-])s1	-	flow cytometry	NL4-3	pseudotyped	CEM-GXR	0.55 µM
COc1cc(C(F)(F)F)cc(S(=O)(=O)c2cccc(N)c2C#N)c1	RT-V106A	β-galactosidase	-	-	HeLa + HELA CD4+	0.0029 µM
Cc1ccnc2c1NC(=O)c1cccnc1N2C1CC1	RT-L74V K101E	-	-	-	MT-4	<1.5 µM
CCCCCCCCCCCCSCC(COP(=O)([O-])OCC[N+](C)(C)C)OCCCCCCCCC(=O)OCC(=O)OC[C@H]1O[C@@H](n2cc(C)c(=O)[nH]c2=O)C[C@@H]1N=[N+]=[N-]	-	plaque count	IIIB WT	-	CEM + CEM-SS	0.008 µM
Cc1ccnc2c1NC(=O)c1cccnc1N2C1CC1	-	cytopathic effect	IIIB	-	CEM	0.0064 µg/mL
CCCCCOC(=O)C[C@H](NP(=O)(CO[C@@H](CF)COc1nccc(N)n1)Oc1ccccc1)C(=O)OCCCCC	-	luminescence	NL4-3	-	TZM-bl	3.47 µM
Cc1ccnc2c1NC(=O)c1cccnc1N2C1CC1	-	XTT	SK1	-	CEM + CEM-SS	0.2 µM
CC(C)C[C@H](NC(=O)[C@H](Cc1ccccc1)NC(=O)CNC(=O)CNC(=O)[C@@H](N)Cc1ccc(O)cc1)C(=O)N[C@@H]1O[C@H](CO)[C@@H](O)[C@H](O)[C@H]1O	-	syncytia / RT activity	-	-	PBL	>140 µM
CC(C)CN(C[C@@H](O)[C@H](Cc1ccccc1)NC(=O)O[C@H]1CO[C@H]2OCC[C@H]21)S(=O)(=O)c1ccc(N)cc1	-	PCR	-	-	Jurkat cells	0.0025 µM
Cc1cn([C@H]2C[C@H](N=[N+]=[N-])[C@@H](CO)O2)c(=O)[nH]c1=O	RT-K103N	XTT	NL4-3	-	CEM + CEM-SS	0.004 µM
CC(C)c1nc(CN(C)C(=O)N[C@H](C(=O)N[C@@H](Cc2ccccc2)C[C@H](O)[C@H](Cc2ccccc2)NC(=O)OCc2cncs2)C(C)C)cs1	RT K70R T215Y 69SS A62V E79K V118I M184V E203K L210W	cytopathic effect / MTT	NRTI resistant	-	MT-4	0.1 µg/mL
Oc1ccc(-c2c(-c3cc(O)cc(O)c3)sc3ccccc23)cc1	-	single cycle	-	-	-	28.3–41.9 µM
Cc1cn([C@H]2C[C@H](N=[N+]=[N-])[C@@H](CO)O2)c(=O)[nH]c1=O	-	plaque count	5346 WT	-	CEM-SS	0.001 µM
CC(C)c1nc(CN(C)C(=O)N[C@H](C(=O)N[C@@H](Cc2ccccc2)C[C@H](O)[C@H](Cc2ccccc2)NC(=O)OCc2cncs2)C(C)C)cs1	RT-A62V S68G T69N V75I F77L F116Y Q151M	cytopathic effect	HXB2	-	MT-4	>5 µM
CCc1c(Sc2ccccn2)n(COCc2ccccc2)c(=O)[nH]c1=O	RT-K103E	cytopathic effect / XTT	NL4-3	-	CEM + CEM-SS	0.35 µM
Cc1cn([C@H]2C[C@H](N=[N+]=[N-])[C@@H](CO)O2)c(=O)[nH]c1=O	-	cytopathic effect / syncytia / microscopy	IIIB	-	C8166	0.01 µM
Fc1cccc(F)c1[C@H]1SCc2nc3ccccc3n21	-	cytopathic effect / MTT	IIIB	-	MT-4	0.2 µg/mL
O=C1N(Cc2ccc(CO)cc2)[C@H](Cc2ccccc2)[C@H](O)[C@@H](O)[C@@H](Cc2ccccc2)N1Cc1ccc(CO)cc1	-	virus yield	RF	-	PBMC	<0.14 µM
Cc1ccnc2c1NC(=O)c1cccnc1N2C1CC1	RT-A98G	cytopathic effect / XTT	NL4-3	-	CEM + CEM-SS	0.2 µM
CCCCCOC(=O)C[C@H](NP(=O)(CO[C@H](CF)Cn1cnc2c(N)ncnc21)Oc1ccccc1)C(=O)OCCCCC	-	luminescence	BaL	-	TZM-bl	0.0042 µM
COc1ccccc1-n1c(-n2[nH]c(=O)c3ccccc3c2=O)nc2ccccc2c1=O	-	visual reading	IIIB	-	MT-4	100 µM
COc1cc(O)cc2cc3c(c(O)c12)C(=O)CC(C)(O)O3	-	XTT / absorbance	SF162	-	TZM-bl	>50 µM
Cc1cn([C@H]2C[C@H](N=[N+]=[N-])[C@@H](CO)O2)c(=O)[nH]c1=O	RT-K103N Y144F	cytopathic effect	P-1 (RT-K103N Y144F)	-	CEM	0.02 µM
CC(C)=CCOc1cc(NC(=S)c2ccoc2C)ccc1Cl	(36G)V38A N42D	luminescence	NL4-3	-	TZM-bl	>2000 µM
CC(C)C[C@H](NC(=O)[C@H](Cc1ccccc1)NC(=O)CNC(=O)CNC(=O)[C@@H](N)Cc1ccc(O)cc1)C(=O)OC[C@@H](O)[C@@H](O)[C@H](O)[C@@H](O)C=O	-	syncytia / RT activity	-	-	PBL	>100 µM
CC(C)=CCN1Cc2cc(Cl)cc3[nH]c(=S)n(c23)C[C@@H]1C	RT-A98G V106I Y181C	-	BCF07	-	PBMC	>6.25 µM
CC(C)C[C@H](NC(=O)[C@H](Cc1ccccc1)NC(=O)CNC(=O)CNC(=O)[C@@H](N)Cc1ccc(O[C@@H]2O[C@H](CO)[C@@H](O)[C@H](O)[C@H]2O)cc1)C(=O)O	-	syncytia / RT activity	-	-	PBL	>100 µM
C[C@H]1CCCC[C@@H]1Oc1cc(CCc2ccccc2)[nH]c(=O)c1I	-	ELISA	SF33	-	TZM-bl	0.003 µM
Cc1cc(Br)cc(S(=O)(=O)c2cccc(N)c2C#N)c1	RT-K103N P225H	β-galactosidase	-	-	HeLa + HELA CD4+	3.3 µM
CC(C)C[C@H](NC(=O)[C@H](Cc1ccccc1)NC(=O)CNC(=O)CNC(=O)[C@@H](N)Cc1ccc(O)cc1)C(=O)O[C@@H]1O[C@H](CO)[C@@H](O)[C@H](O)[C@H]1O	-	syncytia / RT activity	-	-	PBL	>100 µM
CCCCCCCCCCCCSCC(COP(=O)([O-])OCC[N+](C)(C)C)OCCCCCCCCO	-	plaque count	LAI-XXBRU WT	-	CEM + CEM-SS	0.19 µM

8 of the rows above, restated:

structure | mutations | method | strain | conditions | cell line | result
CCCCCCCCCCCCSCC(COP(=O)([O-])OCC[N+](C)(C)C)OCCCCCCCCC(=O)OCC(=O)OC[C@H]1O[C@@H](n2cc(C)c(=O)[nH]c2=O)C[C@@H]1N=[N+]=[N-] | - | plaque count | IIIB WT | - | CEM + CEM-SS | 0.008 µM
C=CCN1C(=S)S/C(=C\c2ccc(-c3ccccc3)o2)C1O | - | PCR | YU2 | - | HEK 293 | 0.5–1 µM
Cc1cc(O)cc(S(=O)(=O)c2cccc(N)c2C#N)c1 | RT-Y188C | β-galactosidase | - | - | HeLa + HELA CD4+ | 0.4 µM
Cc1cn([C@H]2C[C@H](N=[N+]=[N-])[C@@H](CO)O2)c(=O)[nH]c1=O | RT-K103N Y144F | cytopathic effect | P-1 (RT-K103N Y144F) | - | CEM | 0.02 µM
COC(=O)c1cc2c(c(OC)c1-c1ccc(N(C)C)cc1)OCO2 | K103N + Y181C | antigen | A17 | - | C8166 | 78.2 µM
Cc1cc(Cl)cc(S(=O)(=O)c2cccc(N)c2C#N)c1 | RT-K103N P225H | β-galactosidase | - | - | HeLa + HELA CD4+ | 19 µM
CC(C)C[C@H](NC(=O)[C@H](Cc1ccccc1)NC(=O)CNC(=O)CNC(=O)[C@@H](N)Cc1ccc(O)cc1)C(=O)N[C@@H]1O[C@H](CO)[C@@H](O)[C@H](O)[C@H]1O | - | syncytia / RT activity | - | - | PBL | >140 µM
Cc1ccnc2c1NC(=O)c1cccnc1N2C1CC1 | RT-A62V V75I F77L Q151M | β-galactosidase | NRTI resistant (RT A62V V75I F77L Q151M) MDR151 | - | MAGI | 0.16 µM